In patent US20060088533A1, “Methods of treating inflammatory bowel disease” (priority 2004, published 2006):

Target: T1, EGFR (Homo sapiens, UniProt P00533)
T1 construct: endogenous in cells; host or cells: NCM460 (nontransformed human colonic epithelial cells); HT29 (colonic adenocarcinoma cells)
Experiment: Western blot of EGFR phosphorylation in colonocytes exposed to C. difficile toxin
Type: cell-based
Settings: NCM460 cells; AG1478 0.2-1.0 uM for 30 minutes, then TxB 20 nM 60 minutes
Experimental: NCM460 or HT29 cells were seeded in 12 well plates and grown to 70%-100% confluency. Cells were serum starved overnight prior to experiments. TxB or TxA were added in serum free medium at the indicated concentrations for varying lengths of time. Cells were then washed three times with ice cold phosphate buffered saline (PBS) and lysed in 1×SDS sample buffer (Cell Signaling Technology, Beverly, Mass.). Equal amounts of cell lysates were loaded onto 10% SDS-PAGE gels and transferred to nitrocellulose membranes (Bio-Rad Laboratories, Hercules, Calif.). Blots were probed with each primary antibody overnight at 4° C. and then with species-specific secondary antibodies coupled with horseradish peroxidase for 1 hour at room temperature. Peroxidase activity was detected by SuperSignal Chemiluminescent Substrate (Pierce, Rockford, Ill.). Signals were analyzed and quantified as described (Na, X. et al., EMBO J., 22:4249-4259 (2003)) and results were expressed as mean ±SD.

In the case of `COc1cc2ncnc(Nc3cccc(Cl)c3)c2cc1OC` [AG1478, tyrphostin AG1478], the “Activation of EGFR by TxB” value was “completely blocked”.
